A mixed list of measured activities; the numbers were collected in NIAID ChemDB.

Common to all: whole-cell or culture tests; organism: Mycobacterium tuberculosis

Percent inhibition refers to the dose given; in toxicity tests it is the harm to the cells. MIC bound comes from a single tested concentration. An empty or dashed field is not shown. Neighbouring rows are from separate reports. MIC50, MIC90 and the like: level of inhibition, or share of isolates inhibited. ECn: concentration that inhibits the pathogen or its effect by n%.

compound | read-out | conditions | method | strain or isolate | cells | tested at | value
O=C(O)COc1ccc(C2C(Oc3ccc([N+](=O)[O-])cc3)C(=O)N2c2ccc(Cl)c(F)c2)cc1 | inhibition |  | resazurin | H37Rv |  | 6.25 µg/mL | 89%
CC1COc2c(N3CCN(C)CC3)c(F)cc3c(=O)c(C(=O)O)cn1c23 | MIC90 |  |  | 10 strains |  |  | 2 µg/mL
CC[C@@]1(O)CC2CN(CCc3c([nH]c4ccccc34)[C@](C(=O)OC)(c3cc4c(cc3OC)N(C=O)[C@H]3C45CCN4CC=C[C@](CC)(C[C@@]3(O)C(=O)OC)[C@@H]45)C2)C1.O=S(=O)(O)O | MIC bound |  | BACTEC | H37Rv |  |  | >12.5 µg/mL
Cc1c(CN2CCN(C)CC2)cc(-c2ccccc2F)n1-c1cccc2ccccc12 | MIC |  |  | 103471 |  |  | 4 µg/mL
CC[N+]12CC=C3COC(=O)C(C)(O)C(C)(O)C(C)C(=O)OC(CC1)C32.[Br-] | MIC bound |  | BACTEC | H37Rv |  |  | >12.5 µg/mL
CCCCCCCCCCOCCCCOP(=O)(O)C[C@@H]1O[C@H](CO)[C@@H](O)[C@@H]1O | MIC |  |  | H37Rv |  |  | >3.13 µg/mL
CC(C)(C)c1ncc(C(=O)Nc2cc(Br)c(O)c(Br)c2)nc1Cl | inhibition |  |  | H37Rv |  | 6.25 µg/mL | 72%
Nc1ccc(C(=O)O)c(Cl)c1.O=P(O)(Oc1ccccc1)Oc1ccccc1 | inhibition |  | BACTEC | H37Rv |  | 12.5 µg/mL | 0%
Cc1ccccc1OC1C(=O)N(c2ccc(Cl)c(F)c2)C1c1ccc(OCC(=O)O)cc1 | MIC90 |  | resazurin | H37Rv |  |  | >6.25 µg/mL
Cn1c2c(c3ccccc31)CCN(CCCCN1CCN(c3ccccc3)CC1)C2=O | inhibition |  | resazurin | H37Rv |  | 6.25 µg/mL | 41%
CCCCCCCOCCCCOP(=O)(O)C[C@@H]1O[C@H](CO)[C@@H](O)[C@@H]1O | MIC |  |  | H37Rv |  |  | >3.13 µg/mL
Cc1c(CN2CCN(C)CC2)c(CN2CCN(C)CC2)c(-c2ccc(Cl)cc2)n1C1CCCCC1 | MIC |  |  | 103471 |  |  | 8 µg/mL
O=C(Nc1cccc(Cl)c1)c1ccccc1O | MIC |  |  | CNCTC MY 331/8 |  |  | 16 µM
O=C1C(=O)c2ccccc2C(O)=C1CCCc1ccc(C2CCCCCC2)cc1 | MIC bound |  | BACTEC | H37Rv |  |  | ≤128 µg/mL
CCCCCCn1c(C)c(CN2CCOCC2)c(CN2CCOCC2)c1-c1ccc(Cl)cc1 | MIC |  |  | 103471 |  |  | 8 µg/mL
Cc1c(CN2CCN(C)CC2)cc(-c2ccc(Cl)cc2)n1-c1ccc(Cl)cc1 | MIC |  |  | 103471 |  |  | 0.7 µg/mL
O=C(O)C1=C(C(=O)Nc2ccc(NC(=O)C3=C(C(=O)O)CCC3)cc2)CCC1 | inhibition |  | BACTEC | H37Rv |  | 12.5 µg/mL | 14%
O=c1cc(-c2ccc(O)c(O)c2-c2c(O)cc(O)c3c(=O)cc(-c4ccc(O)cc4)oc23)oc2cc(O)cc(O)c12 | MIC |  | resazurin | MTCS1 |  |  | >39.06 µg/mL
CCCCCCOc1cccc(NC(=O)OCCN(C)C)c1 | MIC |  |  | My 331/88 |  |  | 32 µM
O=C(NCc1cccc(Cl)c1)c1ncccc1O | MIC |  |  | CNCTC MY 331/8 |  |  | 125 µM
Cc1ncccc1Nc1cc2nc3ccccc3n(-c3ccc(Cl)cc3)c-2cc1=NC1CCOCC1 | MIC |  | resazurin | H37Rv |  |  | 0.03 µg/mL
CC(=O)c1c(O)c(C)c(O)c2c1OC1=CC(=O)C(C(C)=O)C(=O)[C@]12C | MIC |  | BACTEC | H37Rv |  |  | 16 µg/mL
O=C(O)c1c2n(c3cc(N4CCN(C(c5ccccc5)c5ccc(Cl)cc5)CC4)c([N+](=O)[O-])cc3c1=O)CS2 | MIC |  | agar | H37Rv |  |  | 11.1 µM
CCCCCCCCOc1ccccc1NC(=O)OCCN(C)C | MIC |  |  | My 331/88 |  |  | 8 µM
CCC(C)C1NC(=O)C(CC(C)C)NC(=O)C(C(C)C)NC(=O)C2CSSCC(NC1=O)C(=O)N2 | MIC bound |  | BACTEC | H37Rv |  |  | >12.5 µg/mL
O=C(O)COc1ccc(C2C(c3ccccc3)C(=O)N2c2ccc(Cl)c(F)c2)cc1 | inhibition |  | resazurin | H37Rv |  | 6.25 µg/mL | 77%
COc1cnc2ccc(=O)n(CCN3CCC(NCc4cc5c(cn4)OCCO5)CC3)c2c1 | MIC |  | resazurin | ATCC 27294 |  |  | 0.29 µM
CN[C@@H]1[C@H](O[C@H]2[C@H](O[C@H]3[C@H](O)[C@@H](O)[C@H](N=C(N)N)[C@@H](O)[C@@H]3N=C(N)N)O[C@@H](C)[C@]2(O)C=O)O[C@@H](CO)[C@H](O)[C@H]1O | MIC |  |  | 9106 (streptomycin isoniazid rifampin-R) |  |  | >1280 µg/mL
CC1(C)C=Cc2c(ccc(C(=O)/C=C/c3ccc(O)cc3)c2O)O1 | MIC |  | resazurin | MTCS1 |  |  | 39.06 µg/mL
CC(C)[C@H]1C(=O)OC[C@@H](NC(=O)c2cnc3ccccc3n2)C(=O)N[C@@H](C)C(=O)N(C)[C@@H]2CSSC[C@H](C(=O)N1C)N(C)C(=O)[C@H](C)NC(=O)[C@H](NC(=O)c1cnc3ccccc3n1)COC(=O)[C@H](C(C)C)N(C)C2=O | MIC |  | BACTEC | H37Rv |  |  | 1.6 µg/mL
Cc1c(CN2CCN(C)CC2)cc(-c2ccc(Cl)cc2)n1C1CCCCC1 | MIC |  |  | 103471 |  |  | 8 µg/mL
Nc1ccc(C(=O)O)cc1S(=O)(=O)c1cc(C(=O)O)ccc1N | MIC |  | BACTEC | H37Rv |  |  | 12.5 µg/mL
CC1CN(c2cc3c(cc2[N+](=O)[O-])c(=O)c(C(=O)O)c2n3CS2)CC(C)O1 | MIC |  | agar | H37Rv |  |  | 3.99 µM
CC(C)N=c1cc2n(-c3ccc(Cl)cc3)c3ccccc3nc-2cc1Nc1ccc(Cl)cc1 | MIC |  | resazurin | H37Rv |  |  | 0.03 µg/mL
COc1ccc(O[C@@H]2C=CC(=O)[C@@H](CO)O2)cc1 | MIC |  | BACTEC / radiometric | H37Rv |  |  | >25 µg/mL
CC1COc2c(N3CCN(C)CC3)c(F)cc3c(=O)c(C(=O)O)cn1c23 | MIC | clinical isolate | resazurin | Clinical isolate unspecified |  |  | 0.3 µM
NC(=O)c1cnccn1 | MIC |  |  | Isolate 97-720 |  |  | 900 µg/mL
O=C(NCc1cccc([N+](=O)[O-])c1)c1ncccc1O | MIC |  |  | CNCTC MY 331/8 |  |  | 250 µM
Cc1[nH]c(-c2ccc(Cl)cc2)cc1CN1CCN(C)CC1 | MIC |  |  | 103471 |  |  | 8 µg/mL
NC1CN(c2c(F)cc3c(=O)c(C(=O)O)cn(C4CC4)c3c2Cl)CC12CC2 | MIC |  |  | 71 (RFP-resistant) |  |  | 0.78 µg/mL
Cc1ccc(-c2ccc(Cl)cc2)[nH]1 | MIC |  |  | 103471 |  |  | 4 µg/mL
O=C(Nc1ccccc1Br)c1cncc(Cl)n1 | inhibition |  |  | H37Rv |  | 6.25 µg/mL | 28%
C[C@]1(COc2ccc(N3CCC(Oc4ccc(OC(F)(F)F)cc4)CC3)cc2)Cn2cc([N+](=O)[O-])nc2O1 | MIC90 |  |  | 31 strains (INH-susceptible) |  |  | 0.012 µg/mL
c1ccc2c(c1)Sc1ccccc1N2CCCNC1=NCCO1 | inhibition |  | BACTEC | H37Rv |  | 12.5 µg/mL | 30%
O=C(Nc1ccc(Br)cc1)c1ncccc1S | MIC |  |  | CNCTC MY 331/8 |  |  | 62.5 µM
Cc1c(N2CC3CCCNC3C2)c(F)cc2c(=O)c(C(=O)O)cn(C3CC3)c12 | MIC |  |  | 41 (RFP-susceptible) |  |  | <0.003 µg/mL
COc1ccc(NC(=O)c2ncccc2S)cc1 | MIC |  |  | CNCTC MY 331/8 |  |  | 16 µM
Cc1onc(-c2ccccc2)c1NC(=O)OCc1ccc(-c2cc(C(F)(F)F)cc(C(F)(F)F)c2)o1 | inhibition |  | BACTEC | H37Rv |  | 12.5 µg/mL | 30%
CN1CCN(c2cc3c(cc2F)c(=O)c(C(=O)O)c2n3CS2)CC1c1ccccc1 | MIC |  | agar | H37Rv |  |  | 7.36 µM
Cc1cc(=O)c(C#N)c2c(C#N)c(N)[nH]n12 | MIC bound |  | resazurin | H37Rv |  |  | >6.25 µg/mL
O=C(Nc1ccc(Cl)c(Cl)c1)c1cncc(Cl)n1 | inhibition |  |  | H37Rv |  | 6.25 µg/mL | 61%
Cc1c(CN2CCN(C)CC2)cc(-c2ccccc2Cl)n1-c1ccccc1 | MIC |  |  | 103471 |  |  | >16 µg/mL
Cc1ccc(NCCNCC(C)(C)O)c2c(=O)c3ccccc3sc12 | MIC |  | BACTEC | H37Rv | VERO |  | 6.25 µg/mL
CCCCCCn1c(C)cc(CN2CCN(C)CC2)c1C | EC50 |  |  | H37Rv |  |  | <12.5 µg/mL
C[C@H]1NCc2cc(-c3ccc4c(=O)c(C(=O)O)cn(C5CC5)c4c3OC(F)F)ccc21 | MIC90 |  |  | 10 strains |  |  | 2 µg/mL
O=C1CC2COc3ccc(OCCN4CCCC4)cc3C2=NN1c1ccccc1 | inhibition |  | BACTEC | H37Rv |  | 12.5 µg/mL | 10%
Cc1c(CN2CCN(C)CC2)cc(-c2ccccc2)n1-c1ccccc1Cl | MIC |  |  | 103471 |  |  | >16 µg/mL
O=C(Nc1ccccc1)c1ncccc1S | MIC |  |  | CNCTC MY 331/8 |  |  | 32 µM
Cc1c(CN2CCN(C)CC2)c(CN2CCN(C)CC2)c(-c2ccc(Cl)cc2)n1Cc1ccccc1 | MIC |  |  | H37Rv |  |  | <12.5 µg/mL
COc1ccc(-c2oc3cc(OC)cc(O)c3c(=O)c2OC)cc1 | EC50 |  | BACTEC | H37Rv |  |  | >100 µg/mL
O=C1c2cc3c(cc2C(=O)c2[nH]ncc21)OCO3 | MIC bound |  | resazurin | H37Rv |  |  | >6.25 µg/mL
COc1cccc(NC(=O)c2cnc(C(C)(C)C)cn2)c1 | inhibition |  |  | H37Rv |  | 6.25 µg/mL | 53%
CCCCCOc1ccc(NC(=O)OCCN2CCOCC2)cc1 | MIC |  |  | My 331/88 |  |  | 62.5 µM
Clc1nc(Nc2nc3ccccc3[nH]2)nc(Cl)c1-c1ccccc1 | MIC |  | resazurin | H37Rv |  |  | >6.25 µg/mL
COc1ccc(CC2C3=C(CCCC3)CCN2c2cc3c(cc2[N+](=O)[O-])c(=O)c(C(=O)O)c2n3CS2)cc1 | MIC |  | agar | H37Rv |  |  | 5.87 µM
O=C(Nc1nccs1)c1cncc(Cl)n1 | inhibition |  |  | H37Rv |  | 6.25 µg/mL | 32%
Cc1c(CN2CCOCC2)c(CN2CCOCC2)c(-c2ccc(Cl)cc2)n1C1CCCCC1 | MIC |  |  | H37Rv |  |  | <12.5 µg/mL
CCCCCCCCCCCCCCCCOCCCCOP(=O)(O)C[C@@H]1O[C@H](CO)[C@@H](O)[C@@H]1O | MIC |  |  | H37Rv |  |  | 3.13 µg/mL
COc1ccc(CC2C3=C(CCCC3)CCN2c2cc3c(cc2F)c(=O)c(C(=O)O)c2n3CS2)cc1 | MIC |  | agar | H37Rv |  |  | 12.33 µM
Cc1ccc(C)n1Cc1ccccc1 | MIC |  |  | H37Rv |  |  | <12.5 µg/mL
Cc1c2c(c(O)c3c(O)cccc13)C(=O)C1(O)C(O)=C(C(=O)NCNc3ccc(C(N)=O)cn3)C(=O)C(N(C)C)C1C2.Cl | MIC bound |  | BACTEC | H37Rv |  |  | >12.5 µg/mL
CCOc1ccc(NC(=O)OCC[NH+]2CCCC2)cc1 | MIC |  |  | My 331/88 |  |  | >1000 µM
O=C(Nc1ccc(Cl)c(Cl)c1)c1ncccc1S | MIC |  |  | CNCTC MY 331/8 |  |  | 62.5 µM
CC(=O)NS(=O)(=O)c1ccc(N=Nc2c(C)nn(C(=O)c3cccnc3)c2-c2ccccc2)cc1 | inhibition |  | resazurin | H37Rv |  | 6.25 µg/mL | 18%
O=C(Nc1cc(Br)c(O)c(Br)c1)c1cncc(Cl)n1 | inhibition |  |  | H37Rv |  | 6.25 µg/mL | 69%
C[C@@H]1O[C@@H](O[C@H]2CC[C@]3(C=O)[C@H]4CC[C@]5(C)[C@@H](C6=CC(=O)OC6)CC[C@]5(O)[C@@H]4CC[C@]3(O)C2)[C@H](O)[C@H](O)[C@H]1O | MIC |  | BACTEC | H37Rv |  |  | ≥12.5 µg/mL
CC1(C)CC[C@]2(C(=O)O)CC[C@]3(C)C(=CCC4[C@@]5(C)CC[C@H](O)C(C)(C)C5CC[C@]43C)C2C1 | MIC |  |  | H37Rv (streptomycin-resistant) |  |  | 50 µg/mL
Cc1c(CN2CCN(C)CC2)cc(-c2ccccc2Cl)n1-c1cccc2ccccc12 | MIC |  |  | 103471 |  |  | 4 µg/mL
CCCCCOc1ccccc1NC(=O)OCCN1CCCCCC1 | MIC |  |  | My 331/88 |  |  | 32 µM
O=C(O)COc1ccc(C2C(Oc3ccc(Cl)cc3Cl)C(=O)N2c2ccc(Cl)c(F)c2)cc1 | MIC90 |  | resazurin | H37Rv |  |  | 0.78 µg/mL
CCC1CN(c2c(F)cc3c(=O)c(C(=O)O)cn(C4CC4)c3c2OC)CCN1 | MIC |  |  | 50 (RFP-resistant) |  |  | 0.25 µg/mL

8 of the rows above, restated:

compound | read-out | conditions | method | strain or isolate | cells | tested at | value
Cc1c(CN2CCN(C)CC2)cc(-c2ccccc2Cl)n1-c1ccccc1 | MIC |  |  | 103471 |  |  | >16 µg/mL
Cc1[nH]c(-c2ccc(Cl)cc2)cc1CN1CCN(C)CC1 | MIC |  |  | 103471 |  |  | 8 µg/mL
O=C(Nc1nccs1)c1cncc(Cl)n1 | inhibition |  |  | H37Rv |  | 6.25 µg/mL | 32%
O=C(Nc1ccc(Br)cc1)c1ncccc1S | MIC |  |  | CNCTC MY 331/8 |  |  | 62.5 µM
O=C1c2cc3c(cc2C(=O)c2[nH]ncc21)OCO3 | MIC bound |  | resazurin | H37Rv |  |  | >6.25 µg/mL
CC(C)(C)c1ncc(C(=O)Nc2cc(Br)c(O)c(Br)c2)nc1Cl | inhibition |  |  | H37Rv |  | 6.25 µg/mL | 72%
CN1CCN(c2cc3c(cc2F)c(=O)c(C(=O)O)c2n3CS2)CC1c1ccccc1 | MIC |  | agar | H37Rv |  |  | 7.36 µM
CCCCCCCOCCCCOP(=O)(O)C[C@@H]1O[C@H](CO)[C@@H](O)[C@@H]1O | MIC |  |  | H37Rv |  |  | >3.13 µg/mL